# Laboratory results published in PubChem BioAssay AID504690 (Sanford-Burnham Center for Chemical Genomics, 2011).
# Only a part is listed here, and it is no random draw. The source made the active and inactive calls.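 The calls were made as follows: active = inhibition reaching at least a set limit at 20 µM in the primary screen (cut at about 59% in these data); inactive = the rest.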
# Tested on: glucose-6-phosphate dehydrogenase-6-phosphogluconolactonase (Plasmodium falciparum 3D7)
# Assay: inhibition of malaria parasite G6PD (PfGluPho) – biochemical, fluorescence intensity, uHTS, primary screen (AID 504690);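 also: 0% = DMSO wells with substrate and 100% = DMSO wells lacking glucose-6-phosphate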
# Details: PfGluPho enzyme, NADPH resazurin-diaphorase fluorescence; at 20 µM; active compounds read high
row,SMILES,inhibition
1,Cc1c2c(nc3ccccc13)SC(C(Cl)Cl)C2 (stereo not given),inactive: -10.9%
2,O=C(OC1CN2CCC1CC2)C12CC3CC(CC(C3)C1)C2 (stereo not given),inactive: 5.48%
3,Cc1cc(=O)[nH]c(N[N+](=O)[O-])n1,inactive: -14.8%
4,O=P1(N(CCCl)CCCl)Nc2ccccc2N1,inactive: -7.99%
5,O=P1(N(CCCl)CCCl)OCCCN1CCCl (stereo not given),inactive: -1.28%
6,COc1ccc2nc(NP(=O)(c3ccccc3)c3ccccc3)sc2c1,inactive: -12.7%
7,COc1cc(I)ccc1[As](=O)(O)O,inactive: 0.57%
8,O=[N+]([O-])c1cc(Oc2ccc([N+](=O)[O-])cc2C(F)(F)F)cc([N+](=O)[O-])c1,inactive: 11.7%
9,COc1ccc(N/C(=N/P(=O)(N2CCOCC2)N2CCOCC2)N2CCOCC2)cc1,inactive: -1.4%
10,O=[As](O)(c1ccc(O)cc1)c1ccccc1O,inactive: -6.89%
11,C[As](=O)(O)c1cccc(C(=O)O)c1,inactive: -6.17%
12,COc1cc(C(=O)NCC2(N3CCOCC3)CCCCC2)ccc1OCC(C)C,inactive: -8.41%
13,O=[N+]([O-])c1ccc(-c2cc([N+](=O)[O-])c(O)c([N+](=O)[O-])c2)cc1,inactive: 41.9%
14,Cc1ccc(OP(=O)(Nc2ccc([N+](=O)[O-])cn2)Oc2ccc(C)cc2)cc1,inactive: -11.7%
15,Cc1ccc2nc3c(c(C)c2c1)CC(C(Cl)Cl)S3 (stereo not given),inactive: -10.5%
16,ClCCSc1nnc(-c2cccnc2)o1,inactive: 2.05%
17,CC(C)c1ccc(OP(=O)(Nc2ccccn2)Oc2ccccc2F)cc1 (stereo not given),inactive: 15.5%
18,COC(=O)C1(C)COP(=O)(N2CCCCCC2)OC1 (stereo not given),inactive: -7.43%
19,O=C(OC1CN2CCC1CC2)c1cccc2[nH]cnc12 (stereo not given),inactive: -13.8%
20,CCN(CC)C(=S)SC(NC=O)C(Cl)(Cl)Cl (stereo not given),inactive: 50.6%
21,CC(C)NC(=O)NP(=O)(Oc1ccccc1)Oc1ccccc1,inactive: -19.8%
22,O=[N+]([O-])c1cc([N+](=O)[O-])c(-c2ccn[nH]2)s1,inactive: 38.5%
23,CCOC(=O)Nc1ccc([As](=O)(O)O)c(O)c1,inactive: -30.4%
24,O=C(O)C(O)c1ccc(N(CCCl)CCCl)cc1 (stereo not given),inactive: 0.56%
25,CC1CCNP(=O)(N(CCCl)CCCl)O1 (stereo not given),inactive: -1.11%

row,SMILES,inhibition
1,COP(=O)(OC)N1CC1c1ccccc1 (stereo not given),inactive: -2.83%
2,CCCCOc1ccc(C(=O)NCC2(N3CCCCC3)CCCCC2)cc1OC,inactive: -1.73%
3,Cc1cc(SC(NC(=O)c2ccccc2)C(Cl)(Cl)Cl)nc(C(C)C)n1 (stereo not given),inactive: 43.5%
4,CCOC(=O)Nc1cccc([As](=O)(O)O)c1,inactive: -2.92%
5,O=P(Nc1ccccn1)(c1cccc2ccccc12)c1cccc2ccccc12,inactive: -2.07%
6,Cc1cc(SC(NC=O)C(Cl)(Cl)Cl)ncn1 (stereo not given),inactive: 20.1%
7,O=[N+]([O-])c1ccc(Nc2ccc(Oc3ccc([N+](=O)[O-])cc3[N+](=O)[O-])cc2)c([N+](=O)[O-])c1,inactive: 11.6%
8,COP1(=S)c2c(C)nn(CCC#N)c2N=C(c2ccc(F)cc2)N1C (stereo not given),inactive: 1.09%
9,O=C(O)C(=O)c1ccc(N(CCCl)CCCl)cc1,inactive: 2.52%
10,O=C(Nc1ccncc1[N+](=O)[O-])c1ccc([N+](=O)[O-])cc1[N+](=O)[O-],inactive: 0.42%
11,O=C(OC1CN2CCC1CC2)c1cccc([N+](=O)[O-])c1 (stereo not given),inactive: 6.11%
12,CSc1ccc(Nc2c([N+](=O)[O-])cc([N+](=O)[O-])cc2[N+](=O)[O-])cc1,inactive: 3.71%
13,CCOC(=O)c1ccc(NC(=O)C(C)(CCl)SC)cc1 (stereo not given),inactive: -3.59%
14,CCC(C)N(CC(C)C)C(=S)SC(NC(C)=O)C(Cl)(Cl)Cl (stereo not given),inactive: 12%
15,O=P1(Nc2ccccn2)COc2ccccc2OC1,inactive: -19.3%
16,CCC1=CC2Cc3nc4ccc(Cl)cc4c(N)c3C(C1)C2 (stereo not given),inactive: 14.6%
17,CCOP(=O)(NC(=NC(C)c1ccccc1)NC(C)c1ccccc1)OCC (stereo not given),inactive: -2.43%
18,CN(CCCl)Cc1cc(Cl)c(NC2=NCCN2)c(Cl)c1,inactive: 6.71%
19,CCOP(=O)(Nc1ccc(C)cn1)OCC,inactive: -6.77%
20,O=P1(N(CCCl)CCCl)NCCC(C(F)(F)F)O1 (stereo not given),inactive: 0.58%
21,Clc1n[nH]nc1-c1nn[nH][15n]1,inactive: -5.59%
22,CC(C)(C)C(=O)NC(Sc1ncccn1)C(Cl)(Cl)Cl (stereo not given),inactive: 0.39%
23,COc1ccccc1CNC(=O)COC(=O)C(O)(c1ccccc1)c1ccccc1,inactive: 7.76%
24,CC(C)/C=N\N=C(\N)N[N+](=O)[O-],inactive: -17.5%
25,CN(C(=O)Cc1ccc(Cl)c(Cl)c1)[C@@H]1CCCC[C@H]1N1CCCC1,inactive: -9.01%

row,SMILES,inhibition
1,CC1(CBr)Cn2c(nc3ccccc3c2=O)S1 (stereo not given),inactive: -9.6%
2,Cc1nn(-c2ccccc2)c2c1P(=O)(N1CCOCC1)N(C)C(c1ccccc1)=N2 (stereo not given),inactive: -3.89%
3,CC1CCC(C(C)C)C(OP(=O)(Nc2ccccn2)c2ccccc2)C1 (stereo not given),inactive: 0.53%
4,Cc1ccc(C(=O)OC2CN3CCC2CC3)cc1 (stereo not given),inactive: -7.78%
5,CN(C)C1(CNC(=O)c2ccc(S(C)(=O)=O)cc2)CCCCC1,inactive: -0.05%
6,O=C(/C=C/c1ccccc1)OC1CN2CCC1CC2 (stereo not given),inactive: -4.2%
7,CCCC1OP(=O)(Nc2ccccc2)OCC1CC (stereo not given),inactive: -5.07%
8,O=P1(Nc2ncccn2)COc2ccccc2OC1,inactive: -9.93%
9,Nc1cccc([As](=O)(O)c2ccccc2)c1,inactive: -30.2%
10,O=P1(Nc2ccc(Br)cn2)COc2ccccc2OC1,inactive: -7.12%
11,NS(=O)(=O)c1cccc(NC(=O)COC(=O)C(O)(c2ccccc2)c2ccccc2)c1,inactive: -10.1%
12,O=[As](O)(c1cccs1)c1cccs1,inactive: -13.9%
13,Cc1ccc(OCC(=O)OC2CN3CCC2CC3)cc1 (stereo not given),inactive: -15.3%
14,CCOP1(=S)c2c(C)nn(CCC#N)c2N=C(c2ccccc2F)N1C (stereo not given),inactive: -1.76%
15,O=P(Nc1nccs1)(c1ccccc1)c1nc2ccccc2s1 (stereo not given),active: 80.2%
16,O=P(Nc1nccs1)(Oc1ccccc1)Oc1ccccc1,inactive: -18.6%
17,CS(=O)(=O)c1cc([N+](=O)[O-])c2no[n+]([O-])c2c1,active: 114%
18,Nc1ccccc1[As](=O)(O)c1ccccc1,inactive: -14.8%
19,O=C(O)COc1ccc([As](=O)(O)O)cc1[N+](=O)[O-],inactive: -1.63%
20,NC(=O)Nc1ccc([As](=O)(O)O)cc1,inactive: -0.06%
21,N#CCCN(C(=O)COC(=O)C(O)(c1ccccc1)c1ccccc1)c1ccc(F)cc1,inactive: -8.88%
22,CN(C(=O)Cc1ccccc1)[C@@H]1CC[C@]2(CCCO2)C[C@H]1N1CCCC1,inactive: 3.91%
23,CCOP1(=S)c2c(C)nn(CCC#N)c2N=C(c2ccc(F)cc2)N1C (stereo not given),inactive: -7.52%
24,CN(C)C(=O)c1cc([N+](=O)[O-])cc2c1-c1c(cc([N+](=O)[O-])cc1[N+](=O)[O-])C2=O,active: 102%
25,O=[N+]([O-])c1ccc2c(c1)nnn2O,inactive: -3.78%

row,SMILES,inhibition
1,CN(C(=O)Cc1ccc(Cl)c(Cl)c1)[C@H]1CC[C@@]2(CCCO2)C[C@@H]1N1CCCC1,inactive: 13.7%
2,O=C(OC1CN2CCC1CC2)c1ccc(Cl)cc1 (stereo not given),inactive: -10.9%
3,COc1cc(C(=O)NCC2(N3CCOCC3)CCCCC2)cc(Cl)c1OC(C)C,inactive: 37.8%
4,O=[As](O)(O)c1cccnc1,inactive: 2.13%
5,CS(=O)(=O)c1ccc(Cl)c(NC(=O)COC(=O)C(O)(c2ccccc2)c2ccccc2)c1,inactive: 14%
6,O=[As](O)(c1cccc(O)c1)c1cccc(O)c1,inactive: 0.19%
7,Cc1cccc(OCC(=O)OC2CN3CCC2CC3)c1 (stereo not given),inactive: -7.35%
8,Nc1cccc2c([As](=O)(O)O)cccc12,inactive: 38.6%
9,Cc1ccc(NCCc2c([N+](=O)[O-])cc([N+](=O)[O-])cc2[N+](=O)[O-])cc1,inactive: 25.9%
10,CCCOP(=S)(Nc1nc(N)cc(=O)[nH]1)OCCC,inactive: -3.55%
11,COc1cc(C2NCCC3(OCCO3)C2(C)C)cc(OC)c1OC (stereo not given),inactive: -19.2%
12,CCOP(=O)(Nc1cccc2ccccc12)OCC,inactive: -0.72%
13,O=P1(Nc2nc3ccc(Cl)cc3s2)COc2ccccc2O1 (stereo not given),inactive: -8.18%
14,CCOc1ccc(C2=NCC(CBr)S2)cc1 (stereo not given),inactive: -0.24%
15,CC(C)(C)C(=O)NC(Sc1ccccc1)C(Cl)(Cl)Cl (stereo not given),inactive: 14.6%
16,CCc1cc(O)c([N+](=O)[O-])c(C)c1[N+](=O)[O-],inactive: 7.31%
17,Cc1ccccc1CN(C)C(=O)COC(=O)C(O)(c1ccccc1)c1ccccc1,inactive: -13.9%
18,C[C@@H]1C=CCP(=O)(Oc2ccccc2)O1 (stereo not given in full),inactive: 1.6%
19,C[C@H]1OP(=O)(Oc2ccccc2)C[C@@H]2O[C@@H]21 (stereo not given in full),inactive: -8.1%
20,N#C/C(=C\c1ccc(N(CCBr)CCBr)cc1)C(N)=O,inactive: 27.6%
21,CC(=O)c1ccc(N2CC2c2ccncc2)cc1 (stereo not given),inactive: 3.16%
22,COC(=O)C1(C)COP(=O)(NCc2ccccc2)OC1 (stereo not given),inactive: -13%
23,CC(=O)Nc1ccc([As](=O)(O)O)c(O)c1,inactive: -18%
24,CC(=O)Nc1ccc(Oc2c([N+](=O)[O-])cc([N+](=O)[O-])cc2[N+](=O)[O-])cc1,inactive: 6.46%
25,c1ccc(-c2nn[nH]n2)c(-c2nn[nH]n2)c1,inactive: -17.6%
